Pooled drug test results. Numbers come from NIAID ChemDB, via PubChem.

Common to all: tests in culture; organism: Mycobacterium chelonae

Blank or dashed fields: not listed here.

CCCCCCCCCC(CCCCCCCCC)OC(=O)NC(CCC(=O)O)(CCC(=O)O)CCC(=O)O ; read-out: MIC ; strain or isolate: EO-P-1 ; value: 54 µg/mL
COC(=O)/C=C/C(=O)c1ccc(C(C)(C)C)cc1 ; read-out: MIC ; value: 8 µg/mL
CCCCCCCCCCCCCCCCCOC(=O)NC(CCC(=O)O)(CCC(=O)O)CCC(=O)O ; read-out: MIC ; strain or isolate: EO-P-1 ; value: 27 µg/mL
COc1cc(/C=C/C2=NN(C(=N)N)C(c3cc(OC)c(OC)c(OC)c3)C2)cc(OC)c1OC ; read by: resazurin ; read-out: MIC ; value: 10.63 µM
NCC[C@H](O)C(=O)N[C@@H]1C[C@H](N)[C@@H](O[C@H]2O[C@H](CN)[C@@H](O)[C@H](O)[C@H]2O)[C@H](O)[C@H]1O[C@H]1O[C@H](CO)[C@@H](O)[C@H](N)[C@H]1O ; read by: broth dilution ; read-out: MIC90 ; value: 16 µg/mL
O=c1cc(-c2ccccc2)c2ccc(Cl)cc2o1 ; read by: resazurin ; read-out: MIC90 ; strain or isolate: ATCC 35752 ; value: >100 µg/mL
CCCCCCCCCCCCCCCCCCCC(=O)NC(CCC(=O)O)(CCC(=O)O)CCC(=O)O ; read-out: MIC ; strain or isolate: EO-P-1 ; value: 3 µg/mL
Nc1nc(N)c2c(n1)NC(c1ccc3c(c1)OCO3)CC(c1ccc(F)cc1)=N2 ; read by: MTT / broth dilution / absorbance ; read-out: MIC ; strain or isolate: MNT1407 ; conditions: clinical isolate ; value: >32 µg/mL
CCC1OC(c2ccncc2)=NN1C(C)=O ; read by: agar ; read-out: MIC ; value: >100 µg/mL
Cc1c(C)c(C)[c-](C)c1C.N[C@H](C(=O)[O-])c1ccccc1.[Cl][Rh+2] ; read-out: MIC ; strain or isolate: EO-P-1 ; value: 15 µg/mL
CC1(C)CC[C@]2(C(=O)O)CC[C@]3(C)C(CC[C@@H]4[C@@]5(C)C[C@H](O)CC(C)(C)[C@@H]5CC[C@]43C)[C@@H]2C1 ; read by: resazurin ; read-out: MIC ; value: 100 µg/mL
CCCCCCCCCCCC(CCCCCCCCCCC)OC(=O)NC(CCC(=O)O)(CCC(=O)O)CCC(=O)O ; read-out: MIC ; strain or isolate: EO-P-1 ; value: 72 µg/mL
CCCCCCCCCCCC1OC(c2ccncc2)=NN1C(C)=O ; read by: agar ; read-out: MIC ; value: 6 µg/mL
NCC[C@H](O)C(=O)N[C@@H]1C[C@H](N)[C@@H](O[C@H]2O[C@H](CN)[C@@H](O)[C@H](O)[C@H]2O)[C@H](O)[C@H]1O[C@H]1O[C@H](CO)[C@@H](O)[C@H](N)[C@H]1O ; read-out: MIC ; strain or isolate: EO-P-1 ; value: 2.3 µg/mL
CSc1nc(N)c2c(n1)NC(c1ccccc1)CC(c1ccc3c(c1)OCO3)=N2 ; read by: MTT / broth dilution / absorbance ; read-out: MIC ; strain or isolate: MNT1407 ; conditions: clinical isolate ; value: >32 µg/mL
N=C(N)N1N=C(/C=C/c2ccccc2)CC1c1ccccc1 ; read by: resazurin ; read-out: MIC ; value: 4.3 µM
C[C@@H]1CN(c2c(F)c(N)c3c(=O)c(C(=O)O)cn(C4CC4)c3c2F)C[C@H](C)N1 ; read by: broth dilution / visual reading ; read-out: MIC ; strain or isolate: NCTC 946 ; value: 1 µg/mL
CCCCCCCCCCCCCCCCCCC(=O)NC(C)(CCC(=O)O)CCC(=O)O ; read-out: MIC ; strain or isolate: EO-P-1 ; value: 9 µg/mL
NNC(=O)c1ccncc1 ; read by: MTT / broth dilution / absorbance ; read-out: MIC ; strain or isolate: MNT1407 ; conditions: clinical isolate ; value: >0.5 µg/mL

Repeating the first 2 entries:

structure | read by | read-out | strain or isolate | conditions | value
CCCCCCCCCC(CCCCCCCCC)OC(=O)NC(CCC(=O)O)(CCC(=O)O)CCC(=O)O | - | MIC | EO-P-1 | - | 54 µg/mL
COC(=O)/C=C/C(=O)c1ccc(C(C)(C)C)cc1 | - | MIC | - | - | 8 µg/mL

A number after MIC or MFC names an inhibition level or a share of isolates. Conditions beyond the fields shown may differ between rows.